Pooled drug test results. Numbers come from NIAID ChemDB, via PubChem.

All rows: growth or infection tests; agent: Vaccinia virus; read-out: inhibition

Inhibition is in % at the dose shown (toxicity tests: loss of growth or viability). Neighbouring rows are from separate reports. An empty or dashed field is not shown.

smiles	tested at	cell line	strain or isolate	result
N=c1ncn(Cc2cccc([N+](=O)[O-])c2)c2nc[nH]c12	50 µg/mL	BSC-1	-	0%
CO[C@H]1/C=C/O[C@@]2(C)Oc3c(C)c(O)c4c(O)c(c(/C=N/NC(=O)CN5CCN(c6ccc(Oc7ccccc7)cc6)CC5)c(O)c4c3C2=O)NC(=O)/C(C)=C\C=C\[C@H](C)[C@H](O)[C@@H](C)[C@@H](O)[C@@H](C)[C@H](OC(C)=O)[C@@H]1C	50 µg/mL	L929	-	0%
CN1C(=O)NC(=O)N([C@H]2C[C@H](O)[C@@H](CO)O2)C1(C)C	50 µM	VERO	-	38%
CCCCn1cnc(=N)c2[nH]cnc21	12 µg/mL	BSC-1	-	0%
O=c1c2cnc3cc(F)ccc3c2[nH]n1-c1ccc(F)cc1	100 µM	BSC-40	WR	55%
CO[C@H]1/C=C/O[C@@]2(C)Oc3c(C)c(O)c4c(O)c(c(/C=N/NC(=O)CN5CCN(c6ccc(NC(C)=O)cc6)CC5)c(O)c4c3C2=O)NC(=O)/C(C)=C\C=C\[C@H](C)[C@H](O)[C@@H](C)[C@@H](O)[C@@H](C)[C@H](OC(C)=O)[C@@H]1C	50 µg/mL	L929	-	0%
Cn1cc(NC(=O)c2cc(NC(=O)c3cc([N+](=O)[O-])cn3C)cn2C)cc1C(=O)NCCC(=N)N	10 µg/mL	BSC-1	Noguchi	0%
CO[C@H]1/C=C/O[C@@]2(C)Oc3c(C)c(O)c4c(O)c(c(/C=N/NC(=O)CN5CCN(c6ccc(C)cc6)CC5)c(O)c4c3C2=O)NC(=O)/C(C)=C\C=C\[C@H](C)[C@H](O)[C@@H](C)[C@@H](O)[C@@H](C)[C@H](OC(C)=O)[C@@H]1C	50 µg/mL	L929	-	0%
N=c1ncn(Cc2ccco2)c2nc[nH]c12	50 µg/mL	BSC-1	-	0%
Cc1ccc2ncc3c(=O)n(-c4ccc(F)cc4)[nH]c3c2c1	100 µM	BSC-40	WR	68%
CO[C@H]1/C=C/O[C@@]2(C)Oc3c(C)c(O)c4c(O)c(c(/C=N/NC(=O)CN5CCN(c6ccc(C(C)(C)C)cc6)CC5)c(O)c4c3C2=O)NC(=O)/C(C)=C\C=C\[C@H](C)[C@H](O)[C@@H](C)[C@@H](O)[C@@H](C)[C@H](OC(C)=O)[C@@H]1C	50 µg/mL	L929	-	0%
Cc1ccc(Cn2cnc(=N)c3[nH]cnc32)cc1	25 µg/mL	BSC-1	-	8%
Cc1ccc2ncc3c(=O)n(-c4ccccc4)[nH]c3c2c1	100 µM	BSC-40	WR	47%
CCn1cnc(=N)c2[nH]cnc21	12 µg/mL	BSC-1	-	0%
Cc1ccc2ncc3c(=O)n(-c4ccc(Cl)cc4)[nH]c3c2c1	100 µM	BSC-40	WR	70%
CO[C@H]1/C=C/O[C@@]2(C)Oc3c(C)c(O)c4c(O)c(c(/C=N/NC(=O)CN5CCN(c6ccc(C#N)cc6)CC5)c(O)c4c3C2=O)NC(=O)/C(C)=C\C=C\[C@H](C)[C@H](O)[C@@H](C)[C@@H](O)[C@@H](C)[C@H](OC(C)=O)[C@@H]1C	50 µg/mL	L929	-	0%
Cc1ccc2c(c1)c1nn(-c3ccc(Cl)cc3)c(=O)c-1cn2C1O[C@H](CO)[C@@H](O)[C@H]1O	100 µM	BSC-40	WR	8%
CO[C@H]1/C=C/O[C@@]2(C)Oc3c(C)c(O)c4c(O)c(c(/C=N/NC(=O)CN5CCN(c6ccc(C(F)(F)F)cc6)CC5)c(O)c4c3C2=O)NC(=O)/C(C)=C\C=C\[C@H](C)[C@H](O)[C@@H](C)[C@@H](O)[C@@H](C)[C@H](OC(C)=O)[C@@H]1C	50 µg/mL	L929	-	0%
Cc1ccc2ncc3c(=O)n(-c4ccc(Br)cc4)[nH]c3c2c1	100 µM	BSC-40	WR	42%
Cn1cc(NC(=O)c2cc(NC(=O)c3cc(NC=O)cn3C)cn2C)cc1C(=O)NCCC(=N)N	200 µg/mL	BSC-1	Noguchi	100%
CO[C@H]1/C=C/O[C@@]2(C)Oc3c(C)c(O)c4c(O)c(c(/C=N/NC(=O)CN5CCN(c6ccc(C(C)C)cc6)CC5)c(O)c4c3C2=O)NC(=O)/C(C)=C\C=C\[C@H](C)[C@H](O)[C@@H](C)[C@@H](O)[C@@H](C)[C@H](OC(C)=O)[C@@H]1C	50 µg/mL	L929	-	0%

For reference, 2 entries again:

{"smiles": "Cn1cc(NC(=O)c2cc(NC(=O)c3cc(NC=O)cn3C)cn2C)cc1C(=O)NCCC(=N)N", "tested at": "200 µg/mL", "cell line": "BSC-1", "strain or isolate": "Noguchi", "result": "100%"}
{"smiles": "Cc1ccc2ncc3c(=O)n(-c4ccc(F)cc4)[nH]c3c2c1", "tested at": "100 µM", "cell line": "BSC-40", "strain or isolate": "WR", "result": "68%"}